In article PMC4718804 (eLife, 2015):

System: CHO-7 cells
Assay type: cell-based, hamster

SMILES	[14C]triglyceride content [nmol/hr/ mg protein]	content of [14C]triglycerides [nmol/hr/mg protein]
CCN(CC)CCOC1CCC2(C)C(=CCC3C4CCC(=O)C4(C)CCC32)C1 (stereo not drawn) [U18666A, 3-beta-[2-(diethylamino)ethoxy]androst-5-en-17-one, reference compound]	117	57
C#CCOc1ccc(C(=O)c2ccc(C(=O)OCCN(CC)CCOC3CCC4(C)C(=CCC5C6CCC(=O)C6(C)CCC54)C3)cc2)cc1 (stereo not shown) [U-X]	–	55
CCN(CC)CCCC(C)Nc1ccnc2cc(Cl)ccc12 (stereo not shown) [chloroquine, reference compound]	–	81
